Reference: patent publication US10975126B1 (priority 2020, dated 2021)

Test system: MERS-CoV
Assay: Plaque reduction assay
Format: cell-based, MERS-CoV (CoV/KOR/KNIH/002_05_2015) in Vero cells
Conditions: 10 μM peptide mixed with MERS-CoV for 30 min; Vero cells; counted four days after infection

Row | SMILES | # Plaques
1 | CC[C@H](C)[C@H](NC(=O)[C@H](Cc1ccc(O)cc1)NC(=O)[C@H](CO)NC(=O)[C@H](CCC(=O)O)NC(=O)[C@H](CC(N)=O)NC(=O)[C@H](CC(C)C)NC(=O)[C@H](C)NC(=O)[C@H](CCCCN)NC(=O)[C@@H](NC(=O)[C@@H](NC(=O)[C@H](CCC(N)=O)NC(=O)[C@H](CCC(N)=O)NC(=O)[C@H](CC(C)C)NC(=O)[C@H](CO)NC(=O)[C@H](CC(C)C)NC(=O)[C@H](CCSC)NC(=O)[C@H](CCC(=O)O)NC(=O)[C@H](Cc1ccc(O)cc1)NC(=O)[C@H](CCC(=O)O)NC(=O)[C@H](CC(C)C)NC(=O)[C@H](CC(=O)O)NC(=O)[C@H](CC(C)C)NC(=O)[C@H](CC(C)C)NC(=O)[C@@H](NC(=O)[C@@H](NC(=O)[C@H](CC(N)=O)NC(=O)[C@@H](NC(=O)[C@H](CCC(N)=O)NC(=O)[C@@H](NC(=O)[C@H](CC(C)C)NC(=O)[C@@H](N)CO)[C@@H](C)O)[C@@H](C)CC)[C@@H](C)O)[C@@H](C)O)C(C)C)C(C)C)C(=O)N[C@@H](CC(=O)O)C(=O)N[C@@H](CC(C)C)C(=O)N[C@@H](CCCCN)C(=O)N[C@@H](CCC(=O)O)C(=O)N[C@@H](CC(C)C)C(=O)O | 92
2 | CC[C@H](C)[C@H](NC(=O)[C@H](Cc1ccc(O)cc1)NC(=O)[C@H](CO)NC(=O)[C@H](CCC(=O)O)NC(=O)[C@H](CC(N)=O)NC(=O)[C@H](CC(C)C)NC(=O)[C@H](C)NC(=O)[C@H](CCCCN)NC(=O)[C@@H](NC(=O)[C@@H](NC(=O)[C@H](CCC(N)=O)NC(=O)[C@H](CCC(N)=O)NC(=O)[C@H](CC(C)C)NC(=O)[C@H](CO)NC(=O)[C@H](CC(C)C)NC(=O)[C@H](CCSC)NC(=O)[C@H](CCC(=O)O)NC(=O)[C@H](Cc1ccc(O)cc1)NC(=O)[C@@H](NC(=O)[C@H](CC(C)C)NC(=O)[C@H](CC(=O)O)NC(=O)[C@H](CC(C)C)NC(=O)[C@H](CC(C)C)NC(=O)[C@@H](NC(=O)[C@@H](NC(=O)[C@H](CC(N)=O)NC(=O)[C@@H](NC(=O)[C@H](CCC(N)=O)NC(=O)[C@@H](NC(=O)[C@H](CC(C)C)NC(=O)[C@@H](N)CO)[C@@H](C)O)[C@@H](C)CC)[C@@H](C)O)[C@@H](C)O)[C@@H](C)O)C(C)C)C(C)C)C(=O)N[C@@H](CC(=O)O)C(=O)N[C@@H](CC(C)C)C(=O)N[C@@H](CCCCN)C(=O)N[C@@H](Cc1c[nH]cn1)C(=O)N[C@@H](CC(C)C)C(=O)O | 36
